Potato spindle tuber viroid, loop 15: variant abundance in plants

The pool varies loop 15 of the PSTVd intermediate strain in the pattern GGAAACCGNNNNNNC; wild type is GGAAACCGCUACUAC (upper and lower strand joined, each 5' to 3', the first 7 letters being the upper strand, closing pairs included).

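A pool of all variants was put on leaves of three Nicotiana benthamiana plants. Progeny were sequenced from the inoculated region (day 5), the margin of the inoculated leaf (day 10) and systemic leaves (day 12).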

Values are reads per thousand in the sample; higher means more abundant, 0 means not found.
Each value is the mean of three plants.
"Pool" is the share in the plasmid pool used as inoculum, on the same scale.
The inoculated region was read from the minus strand, the other sites from the plus strand.
IR is the inoculated region, LM the leaf margin, Sys the systemic leaves.
For reference, wild type rose from 33.9 per thousand in the pool to 202, 200, 159 (inoculated region), 724, 746, 710 (leaf margin) and 856, 883, 880 (systemic leaves).
Samples held 43,870 to 66,106 reads, so the smallest values rest on one or two reads.
The authors trace changes outside the varied positions to PCR and sequencing errors or to mutation in the plant; presence does not show that a variant is infectious alone.

* GGAAACCGAAAUCCC (pool 0.240): IR 0.108; LM 0.0134; Sys 0
* GGAAACCGGACCGUC (pool 0.192): IR 0.0975; LM 0.00742; Sys 0
* GGAAACCGUACUAUC (pool 0.208): IR 0.0506; LM 0.00742; Sys 0
* GGAAACCGUCUAGCC (pool 0.192): IR 0.0515; LM 0.00668; Sys 0
* GGAAACCGCUAGUUC (pool 0.384): IR 0.333; LM 0.0793; Sys 0.0461
* GGAAACCGUUUUAAC (pool 0.192): IR 0.0808; LM 0; Sys 0
* GGAAACCGCACUGAC (pool 0.176): IR 0.129; LM 0; Sys 0
* GGAAACCGAUUAACC (pool 0.256): IR 0.0996; LM 0.0128; Sys 0.0107
* GGAAACCGCGAGGGC (pool 0.272): IR 0.272; LM 0.140; Sys 0.0268
* GGAAACCGCAUGGAC (pool 0.240): IR 0.118; LM 0; Sys 0
* GGAAACCGUUCGCAC (pool 0.240): IR 0.339; LM 0.0813; Sys 0.0107
* GGAAACCGAGAGGUC (pool 0.272): IR 0.632; LM 0.127; Sys 0.00537
* GGAAACCGGGCGUGC (pool 0.240): IR 0.0904; LM 0.0128; Sys 0
* GGAAACCGCAACGAC (pool 0.352): IR 0.109; LM 0.0134; Sys 0.00504
* GGAAACCGGUAGAGC (pool 0.224): IR 0.0922; LM 0.0134; Sys 0
* GGAAACCGAAGGGGC (pool 0.288): IR 0.0922; LM 0.00668; Sys 0
* GGAAACCGGUGAACC (pool 0.256): IR 0.111; LM 0.00668; Sys 0.00537
* GGAAACCGUGAUGCC (pool 0.320): IR 0.132; LM 0; Sys 0.00537
* GGAAACCGGCCGUGC (pool 0.336): IR 0.0569; LM 0; Sys 0
* GGAAACCGCCAAGCC (pool 0.112): IR 0.0594; LM 0.00539; Sys 0.00537
* GGAAACCGUCUAAGC (pool 0.272): IR 0.111; LM 0.00668; Sys 0.00537
* GGAAACCGGCUAACC (pool 0.224): IR 0.115; LM 0; Sys 0.00760
* GGAAACCGCUGUGAC (pool 0.144): IR 0.115; LM 0.0128; Sys 0
* GGAAACCGACGGUUC (pool 0.288): IR 0.247; LM 0.0919; Sys 0.0464
* GGAAACCGACGGCCC (pool 0.240): IR 0.0817; LM 0.0108; Sys 0
* GGAAACCGGGUCUUC (pool 0.160): IR 0.0995; LM 0.00539; Sys 0.0107
* GGAAACCGAACGGUC (pool 0.288): IR 0.0632; LM 0.00668; Sys 0
* GGAAACCGAAUGCCC (pool 0.176): IR 0.0632; LM 0.00668; Sys 0.00537
* GGAAACCGCCAAUAC (pool 0.448): IR 0.287; LM 0.0826; Sys 0.0464
* GGAAACCGCACCAAC (pool 0.224): IR 0.0643; LM 0.0254; Sys 0.00537
* GGAAACCGAUCUAUC (pool 0.144): IR 0.0811; LM 0.0200; Sys 0
* GGAAACCGAUGACCC (pool 0.272): IR 0.144; LM 0.0187; Sys 0
* GGAAACCGACCCAUC (pool 0.240): IR 0.0440; LM 0.00668; Sys 0
* GGAAACCGUCACCGC (pool 0.272): IR 0.109; LM 0.00668; Sys 0
* GGAAACCGCGGUUCC (pool 0.160): IR 0.101; LM 0; Sys 0
* GGAAACCGUCGCUAC (pool 0.112): IR 0.238; LM 0.116; Sys 0.0161
* GGAAACCGGUCUCGC (pool 0.320): IR 0.102; LM 0.0343; Sys 0
* GGAAACCGCCCGGCC (pool 0.176): IR 0.0644; LM 0.00668; Sys 0

A selection of 5 entries from above:

| sequence | pool | IR | LM | Sys |
|---|---|---|---|---|
| GGAAACCGGGCGUGC | 0.240 | 0.0904 | 0.0128 | 0 |
| GGAAACCGUUCGCAC | 0.240 | 0.339 | 0.0813 | 0.0107 |
| GGAAACCGUGAUGCC | 0.320 | 0.132 | 0 | 0.00537 |
| GGAAACCGACGGCCC | 0.240 | 0.0817 | 0.0108 | 0 |
| GGAAACCGACCCAUC | 0.240 | 0.0440 | 0.00668 | 0 |

Values reported by Wu et al. 2024 (doi:10.1371/journal.ppat.1012142).